From PubChem BioAssay AID704 (The Scripps Research Institute Molecular Screening Center, 2007)
The entries are a selection whose mix differs from that of the whole data set. The source made the active and inactive calls.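 How the source made its calls: active means inhibition above the screen-wide mean plus 3 SD (cut at about 35% in these data); inactive means the rest.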

Sequences of proteins named here, by UniProt entry; tags and fusion partners are left off.
UniProt P05866, whole entry: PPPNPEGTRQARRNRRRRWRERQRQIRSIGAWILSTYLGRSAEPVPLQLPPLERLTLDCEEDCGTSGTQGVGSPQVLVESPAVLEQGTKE

Target: Protein Rev (Human immunodeficiency virus type 1 group M subtype B (isolate WMJ22)) (UniProt P05866)
Test: disruptors of Rev peptide-RRE RNA complex – biochemical, FRET, protein-RNA interaction, primary screen (AID 704);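 further: 0% = median DMSO wells and 100% = median Neomycin B control wells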
Details: Rev peptide-RRE RNA binding, at 8 µM, stronger effect = higher value
How it was run: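 Assay system: Rev peptide and RRE RNA, both fluorescently labelled; times: 5 min preincubation and 15 min binding, 25 °C; detection: FRET, ex 480 nm, em 540 and 671 nm; read-out basis: % inhibition from 671/540 nm acceptor-to-donor ratio, scaled between controls; benchmarks: DMSO low control, neomycin B high control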

Structure (SMILES)	inhibition
O=C(NCC1(N2CCOCC2)CCCCC1)c1cc2ccccc2o1	inactive: 9.17%
O=C(OC1CN2CCC1CC2)C1c2ccccc2Oc2ccccc21 (stereo not given)	inactive: -4.83%
COc1ccc(NC2CCN(CCc3ccccc3)CC2)c(OC)c1	inactive: -6.22%
N#CC1(Nc2ccccc2)CCN(CCc2ccccc2)CC1	inactive: 2.19%
O=C(NCC1(N2CCOCC2)CCCCC1)c1cc(=O)[nH]c2ccccc12	inactive: -0.14%
CN1CCC(Nc2cccc(F)c2)CC1	inactive: 6.56%
N/C(=N\O)c1c(N)no[n+]1[O-]	inactive: 1.2%
c1ccc(CN2CCC(Nc3ccccc3)CC2)cc1	inactive: 6.22%
CCOc1ncccc1C(=O)NCC1(N2CCOCC2)CCCCC1	inactive: -0.71%
CCC(CO)(C(=O)OC1CN2CCC1CC2)c1ccccc1 (stereo not given)	inactive: 5.1%
